Pooled drug test results. Numbers come from NIAID ChemDB, via PubChem.

All rows: tests in culture; organism: Candida albicans; measure: MIC

An empty or dashed field is not shown.

{"compound": "C=C1C[C@@H]2C[C@@H]3CCO[C@@H](O3)c3coc(n3)/C=C/C[C@H]3O[C@@H](/C(C)=C/I)[C@H](C)[C@@H](OC(=O)/C=C/C[C@@H](C1)O2)[C@H]3C", "strain": "UCD-FR1", "read by": "broth dilution", "value": ">64 µg/mL"}
{"compound": "NC(=NC1CCCC1)c1ccc(-c2ccc(-c3ccc(C(N)=NC4CCCC4)cc3)o2)cc1", "strain": "Isolate 1 (strain 2-76)", "value": "12.5 µg/mL"}
{"compound": "C[C@@H](NC(=O)[C@@H](N)CCCCN)[C@@H](Cc1ccccc1)B1OC2CC3CC(C3(C)C)[C@@]2(C)O1", "value": "≤500 µg/mL"}
{"compound": "Cc1ccc(N=Nc2ccc(O)c(C[N+](C)(C)COCCCC3CCCCC3)c2)cc1", "value": "272 µM"}
{"compound": "CC1CCC2(CC1)N=C(N)N=C(N)N2OCCCCCCCCO", "value": "240 µg/mL"}
{"compound": "C=C1C[C@@H]2C[C@@H]3CCO[C@@H](O3)c3cccc(c3)/C=C/C[C@H]3O[C@@H](/C(C)=C/I)[C@H](C)[C@@H](OC(=O)/C=C\\C[C@@H](C1)O2)[C@H]3C", "strain": "ATCC 14503", "read by": "broth dilution", "value": ">64 µg/mL"}
{"compound": "CCCCCCCCCCCC[n+]1ccc(/C=C/C(=O)c2ccc(OC)cc2)cc1", "value": "58.1 µg/mL"}
{"compound": "C=C1C[C@@H]2C[C@@H]3CCO[C@@H](O3)c3cccc(c3)/C=C\\C[C@H]3O[C@@H](/C(C)=C/I)[C@H](C)[C@@H](OC(=O)/C=C/C[C@@H](C1)O2)[C@H]3C", "strain": "96-489", "read by": "broth dilution", "value": ">64 µg/mL"}
{"compound": "CCCCCCCCCCCCCCCC(=O)NC(CCCN)C(=O)NC(CCCN)C(=O)NC(CCCN)C(=O)NC(CCCN)C(N)=O", "strain": "ATCC 24433", "read by": "broth dilution", "value": "3.1 µg/mL"}
{"compound": "C=C1C[C@@H]2C[C@@H]3CCO[C@@H](O3)c3coc(n3)/C=C/C[C@H]3O[C@@H](/C(C)=C/c4coc(C[C@]5(O)C[C@H](OC)C[C@H]([C@H](O)/C=C(C)/C=C/[C@@H](C/C=C/Cl)OC)O5)n4)[C@H](C)[C@@H](OC(=O)/C=C\\C[C@@H](C1)O2)[C@H]3C", "strain": "96-489", "read by": "broth dilution", "value": "4 µg/mL"}
{"compound": "Cc1ccc(C(C)C)cc1O", "strain": "H37", "value": "0.16 µg/mL"}
{"compound": "C[C@@H](B1OC2CC3CC(C3(C)C)[C@@]2(C)O1)[C@@H](Cc1ccccc1)NC(=O)[C@@H](N)CCCCN", "value": "≤500 µg/mL"}
{"compound": "CCCCCCCCCCCCCC(=O)NC(CCCN)C(=O)NC(CCCN)C(=O)NC(CCCN)C(N)=O", "strain": "ATCC 24433", "read by": "broth dilution", "value": "6.25 µg/mL"}
{"compound": "CCCCCCCCCC[n+]1ccc(/C=C/C(=O)c2cccc(OC)c2)cc1", "value": "<7.5 µg/mL"}
{"compound": "C[C@@H](NC(=O)[C@@H](N)Cc1ccccc1)[C@@H](Cc1ccccc1)B1OC2CC3CC(C3(C)C)[C@@]2(C)O1", "read by": "agar", "value": "≤500 µg/mL"}
{"compound": "CCOC[N+](C)(C)Cc1cc(N=Nc2ccc(Cl)cc2)ccc1O", "value": "325 µM"}
{"compound": "CCCCCCCCCCON1C(N)=NC(N)=NC12CCC(C)CC2", "value": "15 µg/mL"}
{"compound": "CCCCOC[N+](C)(C)Cc1cc(N=Nc2ccc(Cl)cc2)ccc1O", "value": "304 µM"}
{"compound": "CCCCCCCCCCCCCCCCCC(=O)NC(CCCN)C(=O)NC(CCCN)C(=O)NC(CCCN)C(=O)NC(CCCN)C(N)=O", "strain": "ATCC 24433", "read by": "broth dilution", "value": "3.1 µg/mL"}
{"compound": "NC1=NC2(CCCCC2)N(OCCCCCCCCCCCCc2ccccc2)C(N)=N1", "value": "1.9 µg/mL"}
{"compound": "CCCCCCCCCCCC[n+]1ccc(/C=C/C(=O)c2ccccc2OC)cc1", "value": "<7.65 µg/mL"}
{"compound": "COC1CC2CCC(C)C(O)(O2)C(=O)C(=O)N2CCCCC2C(=O)OC(C(C)CC2CCC(O)C(OC)C2)CC(=O)C(C)/C=C(\\C)C(O)[C@@](OC)(N(O)C(=O)OCC(C)C)C(=O)C(C)CC(C)/C=C/C=C/C=C/1C", "strain": "TOR1-1/TOR1", "value": ">100 µg/mL"}
{"compound": "CCCCCOc1ccc(-c2ccc(-c3ccc(C(=O)N[C@H]4C[C@@H](O)[C@@H](O)NC(=O)[C@@H]5[C@@H](O)[C@@H](C)CN5C(=O)[C@H]([C@H](C)O)NC(=O)[C@H]([C@H](O)[C@@H](O)c5ccc(O)cc5)NC(=O)[C@@H]5C[C@@H](O)CN5C(=O)[C@H]([C@H](C)O)NC4=O)cc3)cc2)cc1", "strain": "OY-31.5", "value": "0.015 µg/mL"}
{"compound": "CCCCCCCC[n+]1ccc(/C=C/C(=O)c2ccc(OC)cc2)cc1", "value": "<6.72 µg/mL"}
{"compound": "CCCCCOc1ccc(-c2ccc(-c3ccc(C(=O)N[C@H]4C[C@@H](O)[C@@H](O)NC(=O)[C@@H]5[C@@H](O)[C@@H](C)CN5C(=O)[C@H]([C@H](C)O)NC(=O)[C@H]([C@H](O)[C@@H](O)c5ccc(O)cc5)NC(=O)[C@@H]5C[C@@H](O)CN5C(=O)[C@H]([C@H](C)O)NC4=O)cc3)cc2)cc1", "strain": "Y7", "value": "0.08 µg/mL"}
{"compound": "CCCCCCCCCC[n+]1cccc(/C=C/C(=O)c2ccccc2OC)c1", "value": "<7.34 µg/mL"}
{"compound": "CC1(C)C2CC3OB(C[C@@H](Cc4ccccc4)NC(=O)[C@@H](N)CCCN=C(N)N)O[C@]3(C)C1C2", "value": "≤500 µg/mL"}
{"compound": "CCCCCCCCCC[n+]1cccc(/C=C/C(=O)c2cccc(OC)c2)c1", "value": "<7.5 µg/mL"}
{"compound": "CC1(C)C2CC3OB(C[C@@H](Cc4ccccc4)NC(=O)[C@H](Cc4ccccc4)NC(=O)[C@@H](N)Cc4ccccc4)O[C@]3(C)C1C2", "read by": "agar", "value": "≤500 µg/mL"}
{"compound": "CCCCCCCC(=O)NC(CCCN)C(=O)NC(CCCN)C(=O)NC(CCCN)C(=O)NC(CCCN)C(N)=O", "strain": "ATCC 24433", "read by": "broth dilution", "value": ">100 µg/mL"}
{"compound": "CCCCCCCC[n+]1ccc(/C=C/C(=O)c2cccc(OC)c2)cc1", "value": "<7.18 µg/mL"}
{"compound": "CCCCCCCCCCCC(=O)NC(CCCN)C(=O)NC(CCCN)C(=O)NC(CCCN)C(N)=O", "strain": "ATCC 24433", "read by": "broth dilution", "value": "12.5 µg/mL"}
{"compound": "CC1(C)N=C(N)N=C(N)N1OCCCCCCCCCCCCON1C(N)=NC(N)=NC1(C)C", "value": "30 µg/mL"}
{"compound": "C=C1C[C@@H]2C[C@@H]3CCO[C@@H](O3)c3coc(n3)/C=C/C[C@H]3O[C@@H](/C(C)=C/C#N)[C@H](C)[C@@H](OC(=O)/C=C\\C[C@@H](C1)O2)[C@H]3C", "strain": "96-489", "read by": "broth dilution", "value": ">64 µg/mL"}
{"compound": "COC1CC2CCC(C)C(O)(O2)C(O)C(O)N2CCCCC2C(=O)OC(C(C)CC2CCC(O)C(OC)C2)CC(=O)C(C)/C=C(\\C)C(O)C(OC)C(=O)C(C)CC(C)/C=C/C=C/C=C/1C", "strain": "WILD TYPE", "value": "6.25 µg/mL"}
{"compound": "Cc1ccc(N=Nc2ccc(O)c(C[N+](C)(C)COC3CCCC3)c2)cc1", "value": "309 µM"}
{"compound": "CC1(C)C2CC3OB(C[C@@H](CCc4ccccc4)NC(=O)[C@@H](N)CCCCN)O[C@]3(C)C1C2", "value": "≤500 µg/mL"}
{"compound": "Cc1ccc(N=Nc2ccc(O)c(C[N+](C)(C)COC3CCCCC3)c2)cc1", "value": "148 µM"}
{"compound": "CCCON1C(N)=NC(N)=NC1(C)C", "value": ">60 µg/mL"}

For reference, 5 entries again:

compound	strain	read by	value
CCCCCCCC(=O)NC(CCCN)C(=O)NC(CCCN)C(=O)NC(CCCN)C(=O)NC(CCCN)C(N)=O	ATCC 24433	broth dilution	>100 µg/mL
CCCCCOc1ccc(-c2ccc(-c3ccc(C(=O)N[C@H]4C[C@@H](O)[C@@H](O)NC(=O)[C@@H]5[C@@H](O)[C@@H](C)CN5C(=O)[C@H]([C@H](C)O)NC(=O)[C@H]([C@H](O)[C@@H](O)c5ccc(O)cc5)NC(=O)[C@@H]5C[C@@H](O)CN5C(=O)[C@H]([C@H](C)O)NC4=O)cc3)cc2)cc1	Y7	-	0.08 µg/mL
CCCCCCCC[n+]1ccc(/C=C/C(=O)c2ccc(OC)cc2)cc1	-	-	<6.72 µg/mL
Cc1ccc(N=Nc2ccc(O)c(C[N+](C)(C)COCCCC3CCCCC3)c2)cc1	-	-	272 µM
CCCCCCCCCCCC[n+]1ccc(/C=C/C(=O)c2ccccc2OC)cc1	-	-	<7.65 µg/mL

Neighbouring rows are from separate reports.